Assay results published in article PMC8420505, “Identification of lectin receptors for conserved SARS‐CoV‐2 glycosylation sites” (2021).

Legend:
[1] = biological target: stabilized full‐length trimeric pre‐fusion SARS‐CoV‐2 Spike protein (Spike‐H6) (SARS‐CoV‐2) (UniProt P0DTC2); assay: single-molecule force spectroscopy (AFM)
[2] = biological target: stabilized full‐length trimeric pre‐fusion SARS‐CoV‐2 Spike protein (Spike‐H6) (SARS‐CoV‐2) (UniProt P0DTC2); assay: high-speed AFM
[3] = biological target: stabilized full‐length trimeric pre‐fusion SARS‐CoV‐2 Spike protein (Spike‐H6) (SARS‐CoV‐2) (UniProt P0DTC2); assay: SPR
[4] = biological target: stabilized full‐length trimeric pre‐fusion SARS‐CoV‐2 Spike protein (Spike‐H6) (SARS‐CoV‐2) (UniProt P0DTC2); assay: high-speed AFM; remark: listed apart in the source

| Substance | koff [1] [s⁻¹] | stoichiometry N (lectin molecules per Spike trimer) [2] | Kd,1 (first binding step, bivalent analyte model) [3] [µM] | ka,1 (first binding step, bivalent analyte model) [3] [M⁻¹ s⁻¹] | kd,1 (first binding step, bivalent analyte model) [3] [s⁻¹] | stoichiometry N (lectin molecules per Spike trimer) [4] |
| --- | --- | --- | --- | --- | --- | --- |
| human CD209‐hIgG1 Fc‐fusion protein (from UniProt Q9NNX6) (Fc fusion) | 0.008 | 3.6 | 2.39 | 13200 | 0.0316 | 3.8 |
| human CLEC4G‐hIgG1 Fc‐fusion protein (from UniProt Q6UXB4) (Fc fusion) |  |  | 0.259 | 77700 | 0.0201 | 3.5 |

Like-named read-outs stand apart in the source and are kept apart here.
